Values of other authors, collected in paper PMC12322948 (The Journal of Organic Chemistry, 2025).

By UniProt entry, the sequences of proteins in these tests, tags left out. Residues count along the entry.
UniProt Q9BYF1, 18-805 limits assumed: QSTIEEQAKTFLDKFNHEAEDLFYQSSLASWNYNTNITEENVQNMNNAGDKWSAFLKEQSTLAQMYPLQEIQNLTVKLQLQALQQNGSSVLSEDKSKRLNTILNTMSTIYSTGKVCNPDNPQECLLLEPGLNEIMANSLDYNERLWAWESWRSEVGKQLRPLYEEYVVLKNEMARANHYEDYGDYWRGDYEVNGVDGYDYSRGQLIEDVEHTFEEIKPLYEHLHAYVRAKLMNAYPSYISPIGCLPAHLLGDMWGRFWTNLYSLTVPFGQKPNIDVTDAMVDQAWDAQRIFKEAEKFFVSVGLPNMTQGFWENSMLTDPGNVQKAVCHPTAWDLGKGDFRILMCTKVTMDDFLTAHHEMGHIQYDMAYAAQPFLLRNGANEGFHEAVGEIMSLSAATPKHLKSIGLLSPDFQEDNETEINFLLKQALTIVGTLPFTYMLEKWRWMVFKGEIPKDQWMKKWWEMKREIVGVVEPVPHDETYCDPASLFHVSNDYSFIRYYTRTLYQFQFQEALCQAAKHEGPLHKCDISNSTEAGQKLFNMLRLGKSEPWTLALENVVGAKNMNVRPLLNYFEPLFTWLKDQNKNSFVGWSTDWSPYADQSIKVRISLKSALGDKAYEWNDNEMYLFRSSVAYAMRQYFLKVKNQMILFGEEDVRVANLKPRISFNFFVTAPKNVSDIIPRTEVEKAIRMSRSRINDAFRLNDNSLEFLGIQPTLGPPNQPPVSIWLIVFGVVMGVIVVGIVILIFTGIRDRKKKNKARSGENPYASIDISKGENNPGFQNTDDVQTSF

Molecular target: ACE2 (Homo sapiens, UniProt Q9BYF1)
Settings: published ACE2 value; ref Dales et al.; cited from earlier work

Compound | Reported pIC50
Cc1cccc(Cn2cncc2C[C@H](N[C@@H](CC(C)C)C(=O)O)C(=O)O)c1 | 8.38
Cc1cc(C)cc(Cn2cncc2C[C@H](N[C@@H](CC(C)C)C(=O)O)C(=O)O)c1 | 8.85
CC(C)C[C@H](N[C@@H](Cc1cncn1Cc1ccc([N+](=O)[O-])cc1)C(=O)O)C(=O)O | 7.12
CC[C@H](N[C@@H](Cc1cncn1Cc1ccccc1)C(=O)O)C(=O)O | 6.52
CC(C)C[C@H](N[C@@H](Cc1cncn1Cc1ccc(Cl)cc1)C(=O)O)C(=O)O | 7.68
Cc1ccc(Cn2cncc2C[C@H](N[C@@H](CC(C)C)C(=O)O)C(=O)O)cc1 | 7.49
CC(C)C[C@H](N[C@@H](Cc1cncn1Cc1ccc(OC(F)(F)F)cc1)C(=O)O)C(=O)O | 7.28
Cc1ccccc1Cn1cncc1C[C@H](N[C@@H](CC(C)C)C(=O)O)C(=O)O | 7.54
Cc1ccc(Cn2cncc2C[C@H](N[C@@H](CC(C)C)C(=O)O)C(=O)O)cc1C | 8.00
